Data on twelve molecules can be found in patent publication US9518022B2, “Anti-HIV compounds” (priority 2014, dated 2016).

The subject of the series is HIV-1 NL4-3 viral clone engineered to express Renilla luciferase in place of Nef. Format: cell-based. The note with it: ratio of CC50 over EC50. Here is the method:
The present assay was used to screen candidate antiviral compounds by quantification of virus spread and production over several rounds of infection in vitro. MT-2, a HIV-1 permissive human T-cell line, was seeded in microtiter plates and was simultaneously treated with serially diluted compound and inoculated with a HIV-1 NL4-3 viral clone engineered to express Renilla luciferase in place of Nef. Following treatment, the culture was incubated for 96 hours. After the incubation, media was collected and used to estimate relative infectivity on the indicator cell line, TZM-bl. Additionally, viral spread was quantified by measuring luciferase activity via a commercially available luciferase substrate. In parallel, MT-2 cells were seeded and inoculated with mock virus in the presence of serially diluted compound. Compound toxicity was quantified 96 hours after treatment with AlamarBlue.
MT-2 (NIH Aids reagent program 237) cells were grown and maintained in an incubator at 37° C. with 5% CO2 using a basal medium of RPMI-1640 supplemented with 10% FBS. Cells were seeded in 100 μl at 2×10^4 cells/well in white walled 96-well microtiter plates. Candidate compounds were 3-fold serially diluted in the appropriate solvent. Solvent without compound was used as a no drug reference. Cells were inoculated at a multiplicity of 0.027 with an HIV-1 NL4-3 virus stock engineered to express Renilla luciferase in place of Nef. Diluted virus stock was first added to serially diluted compound. Compound and virus were delivered to cells in an equal volume (100 μl) and treated cultures were returned to the incubator for 96 hours. In parallel, plates for cytotoxicity estimates were prepared in the same way except cells were plated in clear walled 96-well microtiter plates and were mock infected.
At 96 hours post infection, 100 μl virus containing culture supernatant was collected from the treated and infected cultures and serially diluted in DMEM supplemented with 10% FBS, 1% sodium pyruvate, and 20 μg/ml DEAE dextran. One day prior, TZM-bl (ATCC PTA-5659) were cultured in basal medium of DMEM supplemented with 10% FBS and 1% sodium pyruvate and seeded at 7.5×10^3 cells/well in black walled 96-well microtiter plates. Diluted virus containing culture supernatant was transferred to TZM-bl cultures and incubated for 48 hours at 37° C. with 5% CO2. Infected TZM-bl cultures were fixed for 5 minutes with a 1% formaldehyde/0.2% gluteraldehyde/PBS solution then washed three times with PBS. Fixed cultures were incubated at 37° C. for 25 minutes with a 200 μg/ml MUG (4-Methylumbelliferyl β-D-[…])/DMEM solution. The reaction was stopped with an equal volume of 1M sodium carbonate and read at 360, 449 nm on fluorescence plate reader (Biotek).
At 96 hours post infection, 100 μl of culture supernatant was removed from the treated and infected cultures and EnduRen live cell substrate (Promega) was added at a final concentration 1.3 μg/ml. Cells were incubated for 1.5 hours at 37° C. with 5% CO2 then read on a luminescence plate reader (Biotek).
For all assays, data was imported into Accelrys Assay Explorer 3.3. In Assay Explorer, % inhibition (antiviral or cytotoxicity) was calculated using the solvent control as a reference by the following equation: 1−(SignalCompound/SignalReference). The % Inhibition and compound concentration data was fitted using the following 4-parameter logistic model (Assay Explorer model 42):
[formula] where X is compound concentration, Y is % inhibition, D is the maximum % Inhibition (constrained to 100%), C is IC50 value or inflection point, B is the hill slope, and A is the minimum % inhibition (constrained to 0%). The IC50 value is reported as the EC50 or CC50 depending on the assay endpoint. EC50 represents the effective concentration at which virus replication is inhibited by 50 percent. CC50 represents the concentration that results in the death of 50 percent of the host cells. […]
Turning to `COc1cc2c(cc1OCc1ccccc1)CCNC2/C=C/c1cccc2c1ccn2C(=O)OC(C)(C)C` (stereo not drawn) [CK, tert-butyl 4-[(E)-2-[6-(benzyloxy)-7-methoxy-1,2,3,4-tetrahydroisoquinolin-1-yl]ethenyl]-1H-indole-1-carboxylate], the SI was 7.4.

For `COc1cc2c(cc1OCc1ccccc1)CCNC2/C=C/c1cccc2[nH]ccc12` (stereo not drawn) [CL, 6-(benzyloxy)-1-[(E)-2-(1H-indol-4-yl)ethenyl]-7-methoxy-1,2,3,4-tetrahydroisoquinoline], the SI was 4.66.

For `COc1cc2c(cc1OCc1ccccc1)CCNC2/C=C/c1ccc2c(ccn2C(=O)OC(C)(C)C)c1` (stereo not drawn) [CM, tert-butyl 5-[(E)-2-[6-(benzyloxy)-7-methoxy-1,2,3,4-tetrahydroisoquinolin-1-yl]ethenyl]-1H-indole-1-carboxylate], the SI is given as 7.7.

Regarding `COc1cc2c(cc1OCc1ccccc1)CCNC2/C=C/c1cccc2ccn(C(=O)OC(C)(C)C)c12` (stereo not drawn) [CN, tert-butyl 7-[(E)-2-[6-(benzyloxy)-7-methoxy-1,2,3,4-tetrahydroisoquinolin-1-yl]ethenyl]-1H-indole-1-carboxylate], the SI is reported as 11.

As to `COc1cc2c(cc1OCc1ccccc1)CCNC2/C=C/c1ccc(F)c(O)c1F` (stereo not drawn) [CO, 3-[(E)-2-[6-(benzyloxy)-7-methoxy-1,2,3,4-tetrahydroisoquinolin-1-yl]ethenyl]-2,6-difluorophenol], the SI is given as 1.7.

With `COc1cc2c(cc1OCc1ccccc1)CCNC2/C=C/c1cccc(S(C)(=O)=O)c1` (stereo not drawn) [CP, 6-(benzyloxy)-1-[(E)-2-(3-methanesulfonylphenyl)ethenyl]-7-methoxy-1,2,3,4-tetrahydroisoquinoline], the SI is given as 6.7.

For the molecule `COc1cc2c(cc1/C=C/C1NCCc3cc(OCc4ccccc4)c(OC)cc31)OCCO2` (stereo not drawn) [CQ, 6-(benzyloxy)-7-methoxy-1-[(E)-2-(7-methoxy-2,3-dihydro-1,4-benzodioxin-6-yl)ethenyl]-1,2,3,4-tetrahydroisoquinoline], the SI stood at 23.7.

Regarding `COc1cc2c(cc1/C=C/C1NCCc3cc(OCc4ccccc4)c(OC)cc31)OCO2` (stereo not drawn) [CR, 6-(benzyloxy)-7-methoxy-1-[(E)-2-(6-methoxy-2H-1,3-benzodioxol-5-yl)ethenyl]-1,2,3,4-tetrahydroisoquinoline], the SI came out at 27.2.

Regarding `COc1cc2c(cc1OCc1ccccc1)CCNC2/C=C/c1ccc2ccn(C(=O)OC(C)(C)C)c2c1` (stereo not drawn) [CS, tert-butyl 6-[(E)-2-[6-(benzyloxy)-7-methoxy-1,2,3,4-tetrahydroisoquinolin-1-yl]ethenyl]-1H-indole-1-carboxylate], the SI came out at 6.7.

Regarding `COc1cc(/C=C/C2NCCc3cc(OCc4ccccc4)c(OC)cc32)c(N(C)C)cc1OC` (stereo not drawn) [CT, 2-[(E)-2-[6-(benzyloxy)-7-methoxy-1,2,3,4-tetrahydroisoquinolin-1-yl]ethenyl]-4,5-dimethoxy-N,N-dimethylaniline], the SI turned out to be 45.

`COc1cc2c(cc1OCc1ccccc1)CCNC2/C=C/c1cccnc1N(C)C` (stereo not drawn) [CU, 3-[(E)-2-[6-(benzyloxy)-7-methoxy-1,2,3,4-tetrahydroisoquinolin-1-yl]ethenyl]-N,N-dimethylpyridin-2-amine]: the SI was determined as 14.

On to `COc1ncc(/C=C/C2NCCc3cc(OCc4ccccc4)c(OC)cc32)cn1` (stereo not drawn) [DD, 6-(benzyloxy)-7-methoxy-1-[(E)-2-(2-methoxypyrimidin-5-yl)ethenyl]-1,2,3,4-tetrahydroisoquinoline], for which the SI turned out to be 9.
